Measurements reported in PubChem BioAssay AID504761 (Drosophila RNAi Screening Center, 2011)
The screen tested about 22,000 reagents; shown is a random part of those that have a named target and a result. Over the whole deposit, 116 (0.52%) were called active. 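Calls depend on retest data that are not deposited; infection was ranked per plate without normalising between plates; the unit of the infection score is not given.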 Raw values are not corrected between plates. A number with no mark means an inactive call. No sequences are given here. Not given: the amount of reagent, the time to read-out.

Screen: 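Genome-wide fly cell screen for genes dengue virus requires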 (primary screen)
Cell system: D.Mel-2 cells from Drosophila
Knock-down reagent: long dsRNA against Drosophila genes
Conditions: infection with dengue virus type 2; dose and infection time not stated
Measured: 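Per well on two replicate plates, imaging gave the percent of cells positive for viral envelope protein, ranked by infection, and a nuclear count of cells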
Direction: infection score: higher = more virus-infected cells; cell count: higher = more cells in the well
Hit rule: 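Low infection ranks in the two replicates (chance level up to 0.065) followed by a retest with a 1.5-fold or larger significant decrease, p below 0.05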
Calls: active = confirmed: knock-down lowers infection; inactive = not picked or not confirmed

gene	PubChem SID	infection score, replicate 1	infection score, replicate 2	cell count, replicate 1	cell count, replicate 2
mRRF1	SID104190213	16.1	4.24	5063	6204
bdwf	SID104195324	5.85	7.79	6788	6879
CG8774	SID104196237	14.8	25.3	5932	5547
CG11811	SID104189654	1.12	2.51	5962	5374
CG7920	SID104196138	7.41	7.39	6676	6708
CG7920	SID104201301	38.4	25.4	4238	6201
HPS4	SID104186698	4.63	17.8	6714	6205
CG6136	SID104195767	31.2	24.4	5110	5216
smid	SID104191190	3.96	3.39	6065	5460
smid	SID104206563	34	29.1	4041	5209
beat-VI	SID104194266	9.53	6.51	2749	1889
beat-VI	SID104194519	6.22	3.46	3378	6041
Nmt	SID104191028	3.14	3.59	5228	5324
cwo	SID104196864	10.7	22.4	6208	4497
cwo	SID104203765	4.99	2.04	6327	6507
CG12347	SID104194294	0.81	4.51	7192	6668
wake	SID104195940	1.47	5.19	6333	5222
wake	SID104195941	1.95	2.64	6153	5757
CG31601	SID104183470	4.91	1.15	6066	5742
Dnaaf6	SID104190265	2.23	0.72	6406	6089

Part of the list above in another layout:
wake [SID104195940] | infection score, replicate 1: 1.47; infection score, replicate 2: 5.19; cell count, replicate 1: 6333; cell count, replicate 2: 5222
wake [SID104195941] | infection score, replicate 1: 1.95; infection score, replicate 2: 2.64; cell count, replicate 1: 6153; cell count, replicate 2: 5757
CG31601 [SID104183470] | infection score, replicate 1: 4.91; infection score, replicate 2: 1.15; cell count, replicate 1: 6066; cell count, replicate 2: 5742

The results go on:
gene	PubChem SID	infection score, replicate 1	infection score, replicate 2	cell count, replicate 1	cell count, replicate 2
CG12883	SID104194362	5.52	8.15	3171	4183
CG12883	SID104205849	12.1	14.7	6505	3799
Lcp1Psi	SID104184897	0.65	0.16	6186	6208
Lcp1Psi	SID104207009	21	15.1	5105	4918
beat-Ib	SID104183282	22	1.08	5821	7060
CG11768	SID104202576	1.67	9.95	6394	6656
CG11768	SID104208174		17.6	323	3566
CG2921	SID104184116	33.6	15.4	5660	5690
CG2921	SID104203190	6.44	2.85	6382	6239
dgo	SID104185926	4.73	5.96	6041	6479
dgo	SID104205326	5.1	7.38	6392	6507
CG32107	SID104189013	3.04	5.63	5793	6002
CG14298	SID104194569	2.06	1.85	5785	5728
CG17928	SID104182436	11.5	2.66	4859	6460
PpD3	SID104196588	0.42	3.7	6630	6159
CG9356	SID104196268	8.72	5.76	6596	6826
CG7724	SID104190697	8.44	14	6376	5932
Tango1	SID104181919	10.4		5185	481
Tango1	SID104206516	14.2	10.9	6270	6333
